Results of unrelated studies side by side (data: NIAID ChemDB).

All rows: whole-cell or culture tests; agent: Mycobacterium tuberculosis

a–b is a range or a potency band.

structure	strain	mutations	read by	endpoint	tested at	result
C=C1C(=O)N[C@@H](C)C(=O)N[C@H](CC(C)C)C(=O)N[C@H](C(=O)O)[C@H](C)C(=O)N[C@H](CCCN=C(N)N)C(=O)N[C@@H](/C=C/C(C)=C/[C@H](C)[C@H](Cc2ccccc2)OC)[C@@H](C)C(=O)N[C@@H](C(=O)O)CCC(=O)N1C		Isoniazid-resistant	resazurin	MIC		>53 µM
COc1cc(-c2ccccc2)c2ccc(N3CCNCC3)nc2n1	H37Rv			inhibition	12.5 µg/mL	34%
CCC(=O)N1CCN(c2ccc(C(C)=O)cc2)CC1	BioA overexpression strain		turbidity	MIC50		>50 µM
O=C(N/N=C/c1ccc(O)cc1)c1ccc(F)cc1	H37Rv			MIC		>6.25 µg/mL
CN(Cc1ccc(Cl)cc1)Cc1c[nH]c2ccccc12	H37Ra			MIC		32 µg/mL
CCc1nc2ccc(Cl)cn2c1C(=O)NCc1ccc(N2CCC(c3ccc(OC(F)(F)F)cc3)CC2)cc1	H37Rv		resazurin	MIC90		<2 µM
Cc1noc(-c2ccc(N3CCN(C(=O)c4cccc(Cl)c4)CC3)cc2)n1	BioA overexpression strain		turbidity	MIC50		>50 µM
COc1ccc(-n2c(-c3ccc(C)cc3)cc(CN3CCOCC3)c2C)cc1	H37Rv			MIC90		141 µM
CS(=O)(=O)OCCN(CCOS(C)(=O)=O)c1ccc(C=Nc2cc(Cl)c(O)c(Cl)c2)c(Cl)c1.Cl	H37Rv		BACTEC	MIC bound		>12.5 µg/mL
Cc1ccc(-c2cc(CN3CCOCC3)c(C)n2-c2ccc(F)cc2)cc1	H37Rv DR2	V681I		MIC		5.4 µM
COc1ccc2c(-c3ccccc3)cc(N)nc2n1	H37Rv			EC50		<12.5 µg/mL
CCc1nc2ccc(Cl)cn2c1C(=O)NCc1ccc(NCCN2CCOCC2)c(F)c1	H37Rv		resazurin	MIC90		2–10 µM
Fc1cccc(F)c1CNCc1c[nH]c2ccccc12	H37Ra			MIC		128 µg/mL
NC(=S)N/N=C/c1ccc2oc3ccccc3c2c1	INH-r			MIC		≤0.05 µg/mL
Clc1ccc(CNCc2c[nH]c3ccccc23)cc1Cl	H37Ra			MIC		16 µg/mL
O=c1ccc2c(-c3ccccc3)cc(N3CCNCC3)nc2[nH]1	H37Rv			EC50		>12.5 µg/mL
Cc1ccc(CCC(=O)c2ccc(Oc3ccccc3)c(O)c2)cc1	H37Rv		resazurin	MIC		15 µg/mL
FC(F)(F)c1cc(-c2ccccc2)nc(N2N=C(/C=C/c3ccc(Cl)cc3)CC2c2ccc(Cl)cc2)n1	RGH103	katG S315T isoniazid resistant	resazurin	MIC		>41.2 µM
CCc1ccc(-c2cc(CN3CCOCC3)c(C)n2-c2ccc(F)cc2)cc1	H37Rv			MIC90		50.04 µM
COc1ccc(N=Nc2sc(N)nc2-c2cccc([N+](=O)[O-])c2)cc1	H37Rv		BACTEC	inhibition	6.25 µg/mL	40%
CC(=O)NC[C@H]1CN(c2ccc(N3CCOCC3)c(F)c2)C(=O)O1	H37Rv (ATCC 27294)			EC50		0.69 µg/mL
NNC(=O)[C@@H](O)[C@H](O)C(=O)NN	H37Rv		BACTEC	inhibition	12.5 µg/mL	0%
CC(=O)c1ccc(N2CCN(C(=O)c3cncc(Cl)c3)CC2)cc1	Wild type without biotin		turbidity	MIC50		>50 µM
COC(=O)C1=C(O)C(C(=O)OC)=C2C1=C(C(=O)OC)C(=O)C2C(=O)OC	H37Rv		resazurin	MIC bound		>6.25 µg/mL
Clc1ccc(CNCCc2c[nH]c3ccccc23)cc1Cl	H37Ra			MIC		32 µg/mL
CC1COc2c(N3CCN(C)CC3)c(F)cc3c(=O)c(C(=O)O)cn1c23	Harlingen		broth dilution	MIC		0.5 µg/mL
O=c1oc2ccccc2c(O)c1C(c1ccc2c(c1)OCO2)N1CCOCC1	H37Rv		BACTEC	MIC bound		>12.5 µg/mL
O=C(N/N=C/c1cccc(Cl)c1)c1ccc(F)cc1	H37Rv			MIC		>6.25 µg/mL
COc1cc(/C=C/C2=NN(C(=N)N)C(c3cc(OC)c(OC)c(OC)c3)C2)cc(OC)c1OC	RGH103	katG S315T isoniazid resistant	resazurin	MIC		5.31 µM
Cc1c(C(C[N+](=O)[O-])C[N+](=O)[O-])c2ccccc2n1C	H37Ra			MIC		>64 µg/mL
N[C@@H]1CN(c2c(F)cc3c(=O)c(C(=O)O)cn([C@@H]4C[C@@H]4F)c3c2Cl)CC12CC2	18 strains (levofloxacin-resistant)			MIC90		1.56 µg/mL
COc1ccccc1N1CCN(CCc2c[nH]c3cc4c(cc23)OCO4)CC1.O=C(O)[C@H](O)[C@@H](O)C(=O)O	H37Rv		resazurin	MIC bound		>6.25 µg/mL
CN(C)c1ccc(/C=N/NC(=O)c2ccc(F)cc2)cc1	H37Rv			MIC		>6.25 µg/mL
N[C@@H]1CN(c2c(F)cc3c(=O)c(C(=O)O)cn([C@@H]4C[C@@H]4F)c3c2Cl)CC12CC2	Clinical strain	Gyrase Asp94Gly	resazurin	MIC		0.125–0.5 µg/mL
CCc1ccc(-c2cc(CN3CCOCC3)c(C)n2-c2ccc(Cl)cc2)cc1	H37Rv			MIC90		>321 µM
Nc1ccc2c(-c3ccccc3)cc(=O)[nH]c2n1	H37Rv			inhibition	12.5 µg/mL	0%
O=CN(O)CC(=O)O	H37Rv		BACTEC	MIC bound		>12.5 µg/mL
CC(=O)Nc1ccc2c(-c3ccccc3)cc(N3CCN(C(C)=O)CC3)nc2n1	H37Rv			inhibition	12.5 µg/mL	0%
NC(=O)C1=C[C@H]2[C@H]3C=C[C@@]2(O)C(=O)O[C@@H]3O1	PZA-R			MIC		6.3 µg/mL
NNC(=O)c1ccncc1	23 strains (rifampin- isoniazid-susceptible)			MIC90		1.56 µg/mL
CC[C@@H]1OC(=O)[C@H](C)[C@H](OC2CC(C)(OC)C(OC(=O)CCCC(=O)O)C(C)O2)[C@@H](C)[C@H](OC2OC(C)CC(N(C)C)C2O)[C@@](C)(O)C[C@H](C)C(=O)[C@@H](C)[C@H](O)[C@@]1(C)O	H37Rv		BACTEC	MIC bound		>128 µg/mL
NC[C@@H]1O[C@H](O[C@H]2[C@@H](O)[C@H](O[C@@H]3[C@@H](O)[C@H](N)C[C@H](N)[C@H]3O[C@H]3O[C@H](CO)[C@@H](O)C[C@H]3N)O[C@@H]2CO)[C@H](N)[C@@H](O)[C@@H]1O[C@H]1O[C@H](CO)[C@@H](O)[C@H](O)[C@@H]1O	Aoyama B (capreomycin-resistant)			EC50		≥50 µg/mL
Cc1cn2c(C(=O)NCc3ccc(S(F)(F)(F)(F)F)cc3)c(C)nc2s1	H37Rv		resazurin	MIC90		<2 µM
O=[N+]([O-])CC(C[N+](=O)[O-])c1c[nH]c2ccccc12	H37Ra			MIC		64 µg/mL
O=C(N=Nc1c(O)[nH]c2ccc(Br)cc12)c1ccco1	H37Rv		BACTEC	MIC bound		>12.5 µg/mL
O=C(c1cccc(Cl)c1)N1CCN(c2ccc([N+](=O)[O-])cc2)CC1	BioA overexpression strain		turbidity	MIC90		>50 µM
COc1ncc(F)c2nc(S(=O)(=O)Nc3ncccc3C(C)=O)nn12	X24	INH RIF resistant	visual reading	MIC50		0.5 µM
N=C(N)N1N=C(/C=C/c2ccccc2)CC1c1ccccc1	RGM171	rpsL L43R streptomycin-resistant	resazurin	MIC		0.27 µM
NC(=O)C(=O)c1c(-c2ccccc2)c(-c2ccccc2)c2n1CCC2	H37Rv		resazurin	inhibition	6.25 µg/mL	12%
c1ccc(CNCCc2c[nH]c3ccccc23)cc1	H37Ra			MIC		32 µg/mL
Oc1cc(C(O)CCc2ccco2)ccc1Oc1ccccc1	Clinical isolate	MDR	resazurin	MIC		4 µg/mL
CCOC(=O)N1CCN(c2cc(-c3ccccc3)c3ccc(NC(C)=O)nc3n2)CC1	H37Rv			EC50		>12.5 µg/mL
CCc1nc2ccc(Cl)cn2c1C(=O)NCc1ccc(N2CCSCC2)c(F)c1	H37Rv		resazurin	MIC90		<2 µM
C[C@H]1COc2c(N3CCN(C)CC3)c(F)cc3c(=O)c(C(=O)O)cn1c23	001-012 (drug-resistant)			MIC		0.75 µg/mL
O=C(O)CN1C(=O)OC(c2ccccc2)C1=O	H37Rv		BACTEC	MIC bound		>12.5 µg/mL
COc1c(N2CC[C@@H](C(C)(C)N)C2)c(F)cc2c(=O)c3c(=O)[nH]sc3n(C3CC3)c12	Pan-susceptible clinical isolate 1			MIC		0.06 µg/mL
COC(=O)[C@]1(C)CCC[C@]2(C)c3ccc(C(C)C)cc3C(=O)[C@@H](Br)[C@@]12C	H37Rv		BACTEC	inhibition	12.5 µg/mL	60%
Cc1ccn2c(C(=O)NCc3ccc(N4CCC(N)CC4)c(F)c3)c(C)nc2c1	H37Rv		resazurin	MIC90		<2 µM
O=C(N/N=C/c1ccccc1F)c1ccc(F)cc1	H37Rv			EC50		>6.25 µg/mL
CC(C)(C)OC(=O)NC(Cc1c[nH]c2ccccc12)C(=O)NC(Cc1ccccc1)C(=O)NN	H37Rv		BACTEC	MIC bound		>12.5 µg/mL
Cc1nc2ccc(C(F)(F)F)cn2c1C(=O)NCc1ccc2c(c1)CCO2	H37Rv		resazurin	MIC90		2–10 µM
N#CCc1nc2c(s1)C(=O)c1ccccc1C2=O	H37Rv		BACTEC	inhibition	12.5 µg/mL	100%
CO[C@H]1/C=C/O[C@@]2(C)Oc3c(C)c(O)c4c(O)c(c(/C=N/N5CCN(C)CC5)c(O)c4c3C2=O)NC(=O)/C(C)=C\C=C\[C@H](C)[C@H](O)[C@@H](C)[C@@H](O)[C@@H](C)[C@H](OC(C)=O)[C@@H]1C	H37Rv		resazurin	MIC		0.003 µg/mL
Cc1ccc2nc(N=C([S-])[S-])sc2c1.[K+].[K+]	H37Rv		BACTEC	MIC		≥12.5 µg/mL
Cc1nc2nc(S(=O)(=O)Nc3c(Br)ccc4cccnc34)nn2c2c1CCC2	X24	INH RIF resistant	visual reading	MIC50		2 µM
O=C([C@@H](O)CO)N1CC=C(c2c(F)cc(N3C[C@H](COc4ccon4)OC3=O)cc2F)CC1	H37Rv STR-resistant (ATCC 35820)		broth dilution	MIC		1 µg/mL
CCn1c(C)c(C(C[N+](=O)[O-])C[N+](=O)[O-])c2ccccc21	H37Ra			MIC		>64 µg/mL
COc1ccc(CCC(O)c2ccc(Oc3ccccc3)c(O)c2)cc1	Clinical isolate	MDR	resazurin	MIC		3.125 µg/mL
Cc1ccc(-c2cc(CN3CCSCC3)c(C)n2-c2ccc(F)cc2)cc1	H37Rv			MIC90		17.8 µM
CO[C@H]1/C=C/O[C@@]2(C)Oc3c(C)c(O)c4c(O)c(c(/C=N/N5CCN(C)CC5)c(O)c4c3C2=O)NC(=O)/C(C)=C\C=C\[C@H](C)[C@H](O)[C@@H](C)[C@@H](O)[C@@H](C)[C@H](OC(C)=O)[C@@H]1C	PR118			MIC		0.08 µg/mL
Nc1nc(N)c(Br)c(Nc2ccc(Cl)c(Cl)c2)n1	H37Rv		resazurin	MIC bound		>6.25 µg/mL
CCc1nc2cc(C)ccn2c1C(=O)NCc1ccc2c(c1)CCO2	H37Rv		resazurin	MIC90		<2 µM
Clc1cccc(CNCCc2c[nH]c3ccccc23)c1Cl	H37Ra			MIC		32 µg/mL
CN1Cc2cc(N3CCN(C(=O)c4cccc(Cl)c4)CC3)ccc2C1=O	BioA overexpression strain		turbidity	MIC50		>50 µM
CCOC(=O)N1CCN(c2ccc3c(-c4ccccc4)cc(=O)[nH]c3n2)CC1	H37Rv			inhibition	12.5 µg/mL	0%
COc1ccc(CCNC(=O)Cc2cc(OC)c(OC)cc2CO)cc1OC	H37Rv		resazurin	MIC bound		>6.25 µg/mL
Cc1c(N2C[C@@H](N)C3(CC3)C2)c(F)c(N)c2c(=O)c(C(=O)O)cn(C3CC3)c12	27 strains (levofloxacin-susceptible)			MIC90		1.56 µg/mL
C[n+]1ccc(Nc2ccc(NC(=O)c3ccc(Nc4cc[n+](C)c5ccc([N+](=O)[O-])cc45)cc3[N+](=O)[O-])cc2)cc1	H37Rv		BACTEC	MIC		1.56 µg/mL
O=C(CCc1ccco1)c1ccc(Oc2ccccc2)c(O)c1	H37Rv		resazurin	MIC		10 µg/mL

Again, the opening 11 rows:

structure | strain | mutations | read by | endpoint | tested at | result
C=C1C(=O)N[C@@H](C)C(=O)N[C@H](CC(C)C)C(=O)N[C@H](C(=O)O)[C@H](C)C(=O)N[C@H](CCCN=C(N)N)C(=O)N[C@@H](/C=C/C(C)=C/[C@H](C)[C@H](Cc2ccccc2)OC)[C@@H](C)C(=O)N[C@@H](C(=O)O)CCC(=O)N1C |  | Isoniazid-resistant | resazurin | MIC |  | >53 µM
COc1cc(-c2ccccc2)c2ccc(N3CCNCC3)nc2n1 | H37Rv |  |  | inhibition | 12.5 µg/mL | 34%
CCC(=O)N1CCN(c2ccc(C(C)=O)cc2)CC1 | BioA overexpression strain |  | turbidity | MIC50 |  | >50 µM
O=C(N/N=C/c1ccc(O)cc1)c1ccc(F)cc1 | H37Rv |  |  | MIC |  | >6.25 µg/mL
CN(Cc1ccc(Cl)cc1)Cc1c[nH]c2ccccc12 | H37Ra |  |  | MIC |  | 32 µg/mL
CCc1nc2ccc(Cl)cn2c1C(=O)NCc1ccc(N2CCC(c3ccc(OC(F)(F)F)cc3)CC2)cc1 | H37Rv |  | resazurin | MIC90 |  | <2 µM
Cc1noc(-c2ccc(N3CCN(C(=O)c4cccc(Cl)c4)CC3)cc2)n1 | BioA overexpression strain |  | turbidity | MIC50 |  | >50 µM
COc1ccc(-n2c(-c3ccc(C)cc3)cc(CN3CCOCC3)c2C)cc1 | H37Rv |  |  | MIC90 |  | 141 µM
CS(=O)(=O)OCCN(CCOS(C)(=O)=O)c1ccc(C=Nc2cc(Cl)c(O)c(Cl)c2)c(Cl)c1.Cl | H37Rv |  | BACTEC | MIC bound |  | >12.5 µg/mL
Cc1ccc(-c2cc(CN3CCOCC3)c(C)n2-c2ccc(F)cc2)cc1 | H37Rv DR2 | V681I |  | MIC |  | 5.4 µM
COc1ccc2c(-c3ccccc3)cc(N)nc2n1 | H37Rv |  |  | EC50 |  | <12.5 µg/mL

Percent inhibition refers to the dose given; in toxicity tests it is the harm to the cells. MIC bound comes from a single tested concentration. Lines come from different laboratories, so protocols vary. MIC50, MIC90 and the like: level of inhibition, or share of isolates inhibited. ECn: concentration that inhibits the pathogen or its effect by n%. Blank or dashed fields: not listed here.